Compound potency records, mixed from different reports. Data source: NIAID ChemDB in PubChem.

All rows: growth or infection tests; agent: HIV-1; cell line: MAGI; endpoint: EC50

Conditions beyond the fields shown may differ between rows. Blank or dashed fields: not listed here. ECn: concentration that inhibits the pathogen or its effect by n%.

{"compound": "O=C(O)C(=O)/C=C(\\O)c1cc(Cc2ccc(F)cc2)cn(Cc2ccc(F)cc2)c1=O", "result": "0.8 µM"}
{"compound": "O=C(O)[C@@H](C1CCCCC1)N1C[C@H](CN2CCC(c3ncc(Cc4ccccc4)o3)CC2)[C@@H](c2ccccc2)C1", "read by": "β-galactosidase", "result": "<0.1 µM"}
{"compound": "Cc1cc(C)c(CS(=O)c2cccc[n+]2[O-])c(C)c1", "strain or isolate": "IIIB", "read by": "β-galactosidase", "result": "6 µg/mL"}
{"compound": "N#C[C@]1(CO)O[C@@H](n2cnc3c(=O)[nH]cnc32)C[C@@H]1O", "strain or isolate": "HXB2", "read by": "β-galactosidase", "result": "0.242 µM"}
{"compound": "O=C(O)C(=O)/C=C(\\O)c1cc(Cc2cccc(Cl)c2)cn(Cc2ccccc2F)c1=O", "result": "1.9 µM"}
{"compound": "O=S(=O)(O)c1c2ccccc2c(-c2c3nc(c(-c4c5ccccc5c(S(=O)(=O)O)c5ccccc45)c4ccc([nH]4)c(-c4c5ccccc5c(S(=O)(=O)O)c5ccccc45)c4nc(c(-c5c6ccccc6c(S(=O)(=O)O)c6ccccc56)c5ccc2[nH]5)C=C4)C=C3)c2ccccc12", "strain or isolate": "IIIB", "read by": "β-galactosidase", "result": "<5 µg/mL"}
{"compound": "O=C(O)C(=O)/C=C(\\O)c1cc(Cc2ccc(F)cc2F)cn(Cc2ccccc2)c1=O", "result": "0.8 µM"}
{"compound": "N#C[C@]1(CO)O[C@@H](n2cnc3c(N)ncnc32)C[C@@H]1O", "strain or isolate": "3TC-resistant (RT M184V)", "mutations": "RT-M184V", "read by": "β-galactosidase", "result": "2.28 µM"}
{"compound": "Nc1ccn([C@H]2CC[C@@H](CO)O2)c(=O)n1", "mutations": "Wild type", "read by": "β-galactosidase", "result": "0.505 µM"}
{"compound": "Nc1ccn([C@@H]2CS[C@H](CO)O2)c(=O)n1", "strain or isolate": "BaL", "read by": "single cycle", "result": "2.6 µg/mL"}
{"compound": "Cc1ccc(Cn2cc(Cc3cccc(Cl)c3)cc(/C(O)=C/C(=O)C(=O)O)c2=O)cc1", "result": "2.5 µM"}
{"compound": "O=C(O)[C@@H](C1CCCCC1)N1C[C@H](CN2CCC(c3csc(Cc4ccccc4)n3)CC2)[C@@H](c2ccccc2)C1", "read by": "β-galactosidase", "result": "<0.033 µM"}
{"compound": "CCn1c(=O)oc2cc(S(=O)(=O)NCC(O)COc3ccccc3)ccc21", "result": "100 µM"}
{"compound": "O=S(=O)(O)c1ccc(-c2c3nc(c(-c4ccc(S(=O)(=O)O)cc4)c4ccc([nH]4)c(-c4ccc(S(=O)(=O)O)cc4)c4nc(c(-c5ccc(S(=O)(=O)O)cc5)c5ccc2[nH]5)C=C4)C=C3)cc1", "strain or isolate": "IIIB", "read by": "β-galactosidase", "result": "<50 µg/mL"}
{"compound": "Cc1ccc(NC(=O)NCCSCc2ccc(CNC(C)C)o2)cc1Cl", "read by": "cytopathic effect", "result": "<100 µM"}
{"compound": "CCc1c(Oc2cc(C)cc(C)c2)n(CC2CC2)c(=O)[nH]c1=O", "strain or isolate": "IIIB", "read by": "XTT", "result": "0.00022 µM"}
{"compound": "O=C(O)[C@@H](C1CCCCC1)N1C[C@H](CN2CCC(c3cnc(Cc4ccccc4)s3)CC2)[C@@H](c2ccccc2)C1", "read by": "β-galactosidase", "result": "<0.00014 µM"}
{"compound": "O=S(=O)(O)c1ccc(-c2c3nc(c(-c4ccc(S(=O)(=O)O)cc4)c4ccc([nH]4)c(-c4ccc(S(=O)(=O)O)cc4)c4nc(c(-c5ccccc5)c5ccc2[nH]5)C=C4)C=C3)cc1", "strain or isolate": "IIIB", "read by": "β-galactosidase", "result": "0.5 µg/mL"}
{"compound": "O=c1[nH]c(=S)ccn1[C@@H]1O[C@H](COP(=O)(O)O)[C@@H](O)[C@H]1O", "strain or isolate": "IIIB", "read by": "β-galactosidase / visual reading", "result": "12.2 µM"}

Repeating the first 2 entries:

compound,strain or isolate,mutations,read by,result
O=C(O)C(=O)/C=C(\O)c1cc(Cc2ccc(F)cc2)cn(Cc2ccc(F)cc2)c1=O,-,-,-,0.8 µM
O=C(O)[C@@H](C1CCCCC1)N1C[C@H](CN2CCC(c3ncc(Cc4ccccc4)o3)CC2)[C@@H](c2ccccc2)C1,-,-,β-galactosidase,<0.1 µM